Compound potency records, mixed from different reports. Data source: NIAID ChemDB in PubChem.

Shared fields: whole-cell or culture tests; agent: HIV-1; cell line: MT-4; measure: fold resistance

An empty or dashed field is not shown. Fold resistance has wild type as its base. Rows are shuffled and stem from different studies.

| structure | strain or isolate | changes | read by | result |
|---|---|---|---|---|
| CCc1c(C)[nH]c(=O)c(I)c1Oc1cc(C)cc(C)c1 | - | RT-Y188L | cytopathic effect / MTT | 40 |
| Cc1cc(C#N)cc(C)c1Oc1nc(Nc2ccc(C#N)cc2)ncc1SCC(=O)NC1CC1 | - | Y188L | MTT | 12.2 |
| CCc1c(C)[nH]c(=O)c(Sc2ccccc2)c1Oc1cc(C)cc(C)c1 | - | RT-Y188L | cytopathic effect / MTT | 79 |
| CC(C)[C@H](NC(=O)OCc1ccccn1)C(=O)N[C@@H](Cc1ccccc1)[C@@H](O)C[C@H](Cc1ccccc1)NC(=O)OCc1cccnc1 | NL4-3 | PR-L63P | p24 | 1.875 |
| CCc1c(C)[nH]c(=O)c(Cl)c1Oc1cc(C)cc(C)c1 | - | RT-K103N | cytopathic effect / MTT | 3 |
| N#Cc1cc2[nH]c3ccccc3c2n(-c2ccc([N+](=O)[O-])cc2)c1=O | I | RT-K101E K103N | cytopathic effect / MTT | 3 |
| CCc1c(C)[nH]c(=O)c(SCCC(N)=O)c1Oc1cc(C)cc(C)c1 | - | RT-Y188L | cytopathic effect / MTT | 201 |
| Cn1c2ccccc2c2c1cc(C#N)c(=O)n2-c1ccc([N+](=O)[O-])cc1 | A | RT-Y181C | cytopathic effect / MTT | 4 |
| Cc1cc(C#N)cc(C)c1Oc1nc(Nc2ccc(C#N)cc2)ncc1SCC(=O)NCC1CCCO1 | - | L100I | MTT | 5.9 |
| CCc1c(C)[nH]c(=O)c(Br)c1Oc1cc(C)cc(C)c1 | - | RT-K103N Y181C | cytopathic effect / MTT | 79 |
| Cc1ccc(C2CC2)c(-c2ccc3c(c2C)CCCO3)c1[C@H](OC(C)(C)C)C(=O)O | NL4-3 | INSTI-resistant (IN-N155H) | luminescence | 1 |
| Cc1cc(C#N)cc(C)c1Oc1nc(Nc2ccc(C#N)cc2)ncc1SCC(=O)NCCN1CCOCC1 | - | L100I | MTT | 3.7 |
| N#Cc1cc(Cl)cc(Oc2c(Br)ccc(CC(=O)Nc3ccc(S(N)(=O)=O)cc3Cl)c2F)c1 | - | E138K/Y181I | - | 2 |
| Cc1cc(NS(=O)(=O)CC2CCCCC2)c(C)c(C(OC(C)(C)C)C(=O)O)c1-c1ccc2c(c1)CCCO2 | NL4-3 | PI-resistant ARP-11807 (L33F/I47A/L63P/A71V/V82A) | luminescence | 1 |
| C=CCNC(=O)CSc1cnc(Nc2ccc(C#N)cc2)nc1Oc1c(C)cc(C#N)cc1C | - | E138K | MTT | 3.4 |